In US6455558B1, “Biocide composition and use” (Avecia Limited, priority 1998, dated 2002):

Test system: mixed inoculum of Aureobasidium pullulans, Fusarium solani, Penicillium funicularum, Scopulariopsis brevicaulis and Streptoverticillium waksmanii
Assay: Soil burial test of plasticised PVC strips containing biocide: weight loss after 20 weeks
Settings: buried in inoculated potting compost, 25° C.

Question: Which “Actual % Weight Loss” value (amount 500 (ppm)) does the source give for “4,5-dichloro-N-n-octyl isothiazolin-3-one” here?
Answer: Its value is 7.398%.

Question: And the “Actual % Weight Loss” value (amount 1000 (ppm))?
Answer: The value was 7.358%.

Question: What about the “Actual % Weight Loss” value (amount 2000 ppm) of the same substance?
Answer: The value was 7.818%.

Question: What about the “Actual % Weight Loss” value (amount 3000 (ppm)) of the same substance?
Answer: Its value is 6.479%.
